B1: Recombinant DC-SIGN (CD209) with human Fc tag, Q9NNX6 59-404 (Fc fusion)
chain: QVSKVPSSISQEQSRQDAIYQNLTQLKAAVGELSEKSKLQEIYQELTQLKAAVGELPEKSKLQEIYQELTRLKAAVGELPEKSKLQEIYQELTWLKAAVGELPEKSKMQEIYQELTRLKAAVGELPEKSKQQEIYQELTRLKAAVGELPEKSKQQEIYQELTRLKAAVGELPEKSKQQEIYQELTQLKAAVERLCHPCPWEWTFFQGNCYFMSNSQRNWHDSITACKEVGAQLVVIKSAEEQNFLQLQSSRSNRFTWMGLSDLNQEGTWQWVDGSPLLPSFKQYWNRGEPNNVGEEDCAEFSGNGWNDDKCNLAKFWICKKSAASCSRDEEQFLSPAPATPNPPPA
B2: CLEC10A-His, Q8IUN9 (receptor)
soluble receptor: QNSKFQRDLVTLRTDFSNFTSNTVAEIQALTSQGSSLEETIASLKAEVEGFKQERQAGVSELQEHTTQKAHLGHCPHCPSVCVPVHSEMLLRVQQLVQDLKKLTCQVATLNNNASTEGTCCPVNWVEHQDSCYWFSHSGMSWAEAEKYCQLKNAHLVVINSREEQNFVQKYLGSAYTWMGLSDPEGAWKWVDGTDYATGFQNWKPGQPDDWQGHGLGGGEDCAHFHPDGRWNDDVCQRPYHWVCEAGLGQTSQESH

Target: SARS-CoV-2 Spike (S) protein, recombinant, construct not stated at the place (SARS-CoV-2), P0DTC2
Conditions: remark: other sources report otherwise

| Binder | blocking of S protein binding (heat-map cell) [%] |
| --- | --- |
| B1 | 70.1 |
| B2 | -32 |
